Results deposited as PubChem BioAssay AID1259414 (Drosophila RNAi Screening Center, 2018)

Screen: 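Genome-wide screen for host control of endosymbiont load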 (primary screen)
Cells: Drosophila JW18 cells infected with Wolbachia
Reagents: long dsRNA against Drosophila genes, 0.25 µg dsRNA per well of a 384-well plate
Time to read-out: 5 days
Treatment: cells persistently infected with Wolbachia before knock-down; no added drug
Measured: 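Automated imaging of bacterial rRNA staining divided by host cell count, reported as plate-normalised robust z-score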
Direction: Wolbachia per cell robust z: higher = more Wolbachia per host cell than the plate typical
Active means: 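Active if absolute robust z reaches 1.5 in two or more of three replicates, leaving out multi- or no-target dsRNAs, genes unexpressed in JW18 and A1 wells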
The screen tested about 24,000 reagents; shown is an unselected part of those that have a named target and a result. Over the whole deposit, about 1,210 (5%) got an active call. 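Inactive calls also include excluded dsRNAs with several or no targets, genes unexpressed in JW18, and well A1, regardless of score.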 Reagent sequences are not shown.

Depletion of odd [DRSC23024] came out at: Wolbachia per cell robust z, rep 1 = 0.816; Wolbachia per cell robust z, rep 2 = 1.23; Wolbachia per cell robust z, rep 3 = -3.25; inactive.
Against Dip-C [DRSC15855], the entry reads Wolbachia per cell robust z, rep 1 = -1.51; Wolbachia per cell robust z, rep 2 = -1.91; Wolbachia per cell robust z, rep 3 = 0.882; active.
With knock-down of Tlk [DRSC17731], the record shows Wolbachia per cell robust z, rep 1 = 1.25; Wolbachia per cell robust z, rep 2 = -3.52; Wolbachia per cell robust z, rep 3 = 1.12; inactive.
Against Tlk [DRSC22924], the values are Wolbachia per cell robust z, rep 1 = 0.565; Wolbachia per cell robust z, rep 2 = 1.81; Wolbachia per cell robust z, rep 3 = 1.74; inactive.
Knock-down of Tlk [DRSC22926] came out at: Wolbachia per cell robust z, rep 1 = 2.99; Wolbachia per cell robust z, rep 2 = -0.674; Wolbachia per cell robust z, rep 3 = 1.7; inactive.
After knock-down of Tlk [DRSC23163], the screen gave Wolbachia per cell robust z, rep 1 = -1.23; Wolbachia per cell robust z, rep 2 = 0.0448; Wolbachia per cell robust z, rep 3 = -1.63; inactive.
Silencing of g [DRSC20335] came out at: Wolbachia per cell robust z, rep 1 = 0.781; Wolbachia per cell robust z, rep 2 = -0.158; Wolbachia per cell robust z, rep 3 = 0.232; inactive.
After knock-down of g [DRSC26118] the results were Wolbachia per cell robust z, rep 1 = -1.64; Wolbachia per cell robust z, rep 2 = -1.87; Wolbachia per cell robust z, rep 3 = -0.695; active.
Knock-down of Cpr49Ac [DRSC07199] resulted in: Wolbachia per cell robust z, rep 1 = -0.649; Wolbachia per cell robust z, rep 2 = -7.19; Wolbachia per cell robust z, rep 3 = -1; inactive.
With knock-down of CG15800 [DRSC04271] the results were Wolbachia per cell robust z, rep 1 = 0.822; Wolbachia per cell robust z, rep 2 = 1.39; Wolbachia per cell robust z, rep 3 = 0.733; inactive.
Knock-down of Notum [DRSC09959] came out at: Wolbachia per cell robust z, rep 1 = 0.0723; Wolbachia per cell robust z, rep 2 = -0.074; Wolbachia per cell robust z, rep 3 = -0.452; inactive.
Srg3 [DRSC08984] showed Wolbachia per cell robust z, rep 1 = 0.757; Wolbachia per cell robust z, rep 2 = 0.645; Wolbachia per cell robust z, rep 3 = 1.54; inactive.
Srg3 [DRSC10178] gave Wolbachia per cell robust z, rep 1 = -0.171; Wolbachia per cell robust z, rep 2 = -1.77; Wolbachia per cell robust z, rep 3 = -1.43; inactive.
Depletion of CG5214 [DRSC15739] came out at: Wolbachia per cell robust z, rep 1 = -0.0183; Wolbachia per cell robust z, rep 2 = -0.205; Wolbachia per cell robust z, rep 3 = 0.479; inactive.
CG5214 [DRSC22842] scored Wolbachia per cell robust z, rep 1 = -4.09; Wolbachia per cell robust z, rep 2 = -0.61; Wolbachia per cell robust z, rep 3 = -1.4; inactive.
After knock-down of CG5214 [DRSC25298] the results were Wolbachia per cell robust z, rep 1 = -0.61; Wolbachia per cell robust z, rep 2 = 0.562; Wolbachia per cell robust z, rep 3 = -0.0168; inactive.

2 consecutive entries from above, quoted:
g [DRSC20335] | Wolbachia per cell robust z, rep 1: 0.781; Wolbachia per cell robust z, rep 2: -0.158; Wolbachia per cell robust z, rep 3: 0.232; activity call: inactive
g [DRSC26118] | Wolbachia per cell robust z, rep 1: -1.64; Wolbachia per cell robust z, rep 2: -1.87; Wolbachia per cell robust z, rep 3: -0.695; activity call: active
